The values below come from patent US20230303666A1, “Cell-free antibody engineering platform and neutralizing antibodies for sars-cov-2” (published 2023).

This assay deals with SARS-CoV-2 S deleted of the C-terminal 27 a.a. and fused to the NRVRQGYS sequence of HIV-1 (pCMV-SAR (SARS-CoV-2) (UniProt P0DTC2)). Nature of the assay: cell-based or functional assay.

In the case of VHH72, the Pseudovirus neutralization % inhibition, 5 nM VHH, replicate 1 was determined as 6.09%; the Pseudovirus neutralization % inhibition, 5 nM VHH, replicate 2 is 2.67%; the Pseudovirus neutralization % inhibition, 50 nM VHH, replicate 1 was determined as 4.12%; the Pseudovirus neutralization % inhibition, 50 nM VHH, replicate 2 is 3.97%. The substance further returned a Pseudovirus neutralization % inhibition, 500 nM VHH, replicate 1 of 81.4% and a Pseudovirus neutralization % inhibition, 500 nM VHH, replicate 2 of 49.6%.
